These are literature values, as cited in paper PMC11206691, “N-Hydroxypiridinedione: A Privileged Heterocycle for Targeting the HBV RNase H” (Molecules, 2024).

For this data set, the system named is HBV replication. The settings on record: CC50/EC50, earlier inhibitors; cited from earlier work.

For the compound `COC(=O)c1c2c(cc(O)c(=O)c1O)COC2=O` [a-HT], the SI is more than 154. As to `COc1ccc(CON=C(C)c2c(C)cc(=O)n(O)c2O)cc1` [A24], the SI was 352.

As for `C/C(=N\c1cccc(Br)c1)c1c(C)cc(=O)n(O)c1O` [HPD imine], the SI was 58. For `NCc1ccc(-c2ccc(Cc3cc(=O)n(O)c4ncccc34)cc2)cc1` [HNO], the SI is 2. On to `O=C(Nc1ccc2c(c1)C(=O)N(O)C(=O)C2C(=O)NCc1ccc(F)cc1)c1ccccc1` (centres unmarked) [HID], for which the SI is 71.
